Source: PubChem BioAssay AID624099 (ICCB-Longwood, 2012)

Screen: 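Human genes that papillomavirus E2 requires to repress the HPV18 LCR promoter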 (primary screen)
Cell system: human C33A cervical carcinoma cells (HPV-negative) stably expressing BPV1 E2 and an HPV18 LCR luciferase reporter
Reagents: siRNA pool against human genes, 40 nM
Duration: 72 h
Read-out: 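HPV18 LCR reporter light per well, converted to plate-wise z-scores that exclude control wells, and averaged over triplicate plates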
Reading the numbers: mean z-score and z-score: higher = stronger reporter signal, weaker E2 silencing
Rule for the call: 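Mean z ≥ 2 together with z ≥ 2 in two or more of the three replicates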
Here is a random part of about 21,000 reagents tested. 497 of all reagents (2.4%) count as active. 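Higher z means weaker E2 silencing; only reporter increases were scored, and knock-downs that hurt cell survival may mask genuine repressor factors.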 No sequences are given here.

Target gene,mean z-score,"z-score, replicate A","z-score, replicate B","z-score, replicate C",call
SLC1A6,0.07,0.08,0.22,-0.1,inactive
IFNE,-1.14,-1.14,-1.08,-1.2,inactive
RCN2,0.26,-0.02,0.46,0.33,inactive
NCOA1,0.52,0.52,0.49,0.54,inactive
ULBP3,-0.43,-0.79,-0.17,-0.34,inactive
MGRN1,-0.06,-0.37,0.19,-0.01,inactive
ZNF618,-0.38,-0.55,-0.33,-0.28,inactive
C8orf17,0.82,0.55,1.05,0.85,inactive
CCDC43,-0.72,-0.78,-0.61,-0.76,inactive
WDR26,-2.08,-2.11,-2.05,-2.07,inactive
LOC389202 (retired record),0.12,0.39,0.18,-0.2,inactive
ATP11A,-1.23,-1.36,-1.08,-1.26,inactive
HPX,-0.69,-0.48,-0.95,-0.65,inactive

Continued, starting with the last 2 of the part before.
Target gene,mean z-score,"z-score, replicate A","z-score, replicate B","z-score, replicate C",call
ATP11A,-1.23,-1.36,-1.08,-1.26,inactive
HPX,-0.69,-0.48,-0.95,-0.65,inactive
SUV39H1,1.46,0.95,1.59,1.83,inactive
CLDN16,-0.69,-0.89,-0.64,-0.53,inactive
MAP3K10,-1.17,-1.2,-1.3,-1.01,inactive
CACNA1A,0.73,0.13,0.79,1.26,inactive
CTNNA1,-0.92,-0.75,-0.89,-1.12,inactive
TNFSF12,-0.13,-0.12,-0.23,-0.03,inactive
S1PR2,-0.43,-0.32,-0.43,-0.55,inactive
TEX26,-0.42,-0.67,0.07,-0.68,inactive
PPM1D,-0.98,-1.08,-0.7,-1.16,inactive
SNX14,0,-0.24,-0.18,0.42,inactive
